What all share (conditions): designed binder
In experiment [1] the target is Pup (prokaryotic ubiquitin-like protein), bacterially expressed and purified (Mycobacterium tuberculosis) (UniProt P9WHN5).
Experiment [2] shares this target. The source holds these as a separate data set.
The target is the same in experiment [3]. The source holds these as a separate data set.

The chains behind the UniProt entries cited, without tags or fusion partners. Where a name states a change or a piece, a line headed by the entry shows the natural chain unless it says otherwise.
UniProt P9WHN5: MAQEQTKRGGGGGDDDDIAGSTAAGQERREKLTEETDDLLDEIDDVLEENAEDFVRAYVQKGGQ

Read-outs that look alike come from different tables or passages of the source.

Drawing on PMC4371151, this text covers Kd for three substances.

Broadly, the Kd is the free concentration of one partner at which half of the binding sites on the other are occupied at equilibrium, for simple one-to-one binding. A high value points to lower affinity.

Regarding “Peptide aptamer PA-1, expressed from pBAD-PA (from UniProt P0AA25 1-109)”, the Kd in experiment [1] amounted to 22 nM. “Peptide aptamer PA-3, expressed from pBAD-PA (from UniProt P0AA25 1-109)” gave a Kd in experiment [2] of 30 nM.

In experiment [3], “Peptide aptamer PA-7, expressed from pBAD-PA (from UniProt P0AA25 1-109)” displayed a Kd of 120 nM.
